Laboratory results as given in US12458691.

Tests used:
[1] = molecular target: BG505 DS-SOSIP trimer (HIV-1 strain BG505); experiment: SPR, Fab over 2G12-captured trimer, 1:1 fit
[2] = molecular target: BG505 DS-SOSIP trimer (HIV-1 strain BG505); experiment: BLI (Octet), IgG on the sensor, apparent KD with IgG avidity
[3] = molecular target: BG505 SOSIP trimer (HIV-1 strain BG505); experiment: as above
[4] = molecular target: FP8-1HQK (HIV-1 strain BG505); experiment: apparent KD; Octet BLI, antibody IgG on sensor (method per paragraph 361)

| Substance | Kd [1] | Kd [2] | Kd [3] | Kd [4] |
| --- | --- | --- | --- | --- |
| VRC34.01 Fab | 648 pM |  |  |  |
| ACS202 (antibody) |  | < 1 pM | < 1 pM |  |
| VRC01 (antibody) |  | < 1 pM | < 1 pM |  |
| PGT151 (antibody) |  | < 1 pM | < 1 pM | < 1 pM |
